Measured values: the supplement of paper PMC9931576
Human monoclonal antibodies against the spike receptor-binding domain (heavy:light variable regions). IC50 against pseudoviruses bearing the spike of naturally observed variants; lower = stronger; >10 µg/ml means not reached at the top dose. No active / inactive call. The stated detection limit is 0.0005 µg/ml; values near or below 0.001 µg/ml lie at the floor of the assay.

B1: BD55-6707 (protein)
chain 1: EVQLVESGGGLVQPGGSLRLSCAASGFSFSSYDMLWVRQVPGKGLEWISSVGTSGDTYYRDSVRGRFTISREDAKNSLFLHMNNLRSGDTAVYYCVRGDASGYYYFFDHWGQGALVTVSS
chain 2: DIQMTQSPSSLSASVGDRVTITCRAAQTIGSYLNWYQQRPGKAPRLLIYAASTLQSGVSSRFSGSGAGTEFTLTISSLQPEDFATYYCQQSYSTSTWTFGLGTKVE
B2: BD55-1315 (protein)
chain 1: EVQLVESGGGLIQPGGSLRLSCAASGLIVDRNYMTWVRQAPGKGLEWVAVIYSGGSTFYADSVKGRFIISRDSSNNTLYLQMNSLRAADTAVYYCARDAINYGMDVWGQGTMVTVSS
chain 2: DIQLTQSPSSLSASVGDRVTITCRASQSVSGYLNWYQQKPGKAPKLLISGGSSLQSGVPSRFSGTTSGTDFTLTISNLQPEDFATYYCQQSYSHTTFGPGTKVDV
B3: BD55-6711 (protein)
chain 1: QLQLRESGPGLVKPSETLSLTCTVSGGSISSTTYYWGWVRQPPGKGLEWIGSIHYSGSTYYNPSLESRVTISVDTSKSQFSLKLSSVTAADTSVYYCRGTSGWSSYYSYMDVWGNGTTVTVSS
chain 2: DIVMTQSPDSLAVSLGERATINCKSSQSLLYSSNNKNYLAWYQQKPGQPPKLLIYWASTRESGVPDRFSGSGSGTDFTLTINSLQAEDVAVYYCQQYYSTRRMYTFGQGTKLEIK
B4: BD55-6714 (protein)
chain 1: QEQLVQSGSELKKPGASVKLSCKAAGYTFTKYTLNWVRQVPGQGLEWMGWINTNTGTPTYAQVFTGRFVFSLDTSVRTAYLQISGLKTEDTAVYYCARREHYDFVWGAPYYFDLWGQGTLVTVSS
chain 2: SYELTQPPSVSVSPGQTARITCSGDTLPKQYAYWYQQKPGQAPVLMIYKDSERPSGIPERFSGSSSGTAVTLTITGVQAEDEADYYCQSLDTRTTYRVLFGGGTKLTVL
B5: BD55-6718 (protein)
chain 1: QAQLVQSGSELKKPGASVKVSCKASGYTFANYAMHWVRQAPGQGLEWMGWISTNTGNPTYGQDFTGRFVFSLDTSVSTAYLQISSLKAEDTAVYYCARGDRNYFGYEASDIWGQGTMVTVSS
chain 2: DIQLTQSPPSLSASVGDRVTITCRASQSISNYLNWYQQKPGKAPNLLIYAASSLQTGVPSRFSGSGSGTDFSLTISSLQPEDFATYYCQQSYSSHLFTFGGGTKVEI
B6: BD55-6721 (protein)
chain 1: EVQLVESGGGLVQPGGSLRLSCTASGFTFSNYAMHWVRQAPGKGLEFVSSIVSNGVGTFYAKSVQGRFTVSRDNSKNTMYLQMASLTTEDMAVYYCAREHSAYYLAFDYWGQGALVIVSS
chain 2: DIQMTQSPSSLSASVGDRVTITCRASQSISRYLNWYQQKQGKAPKLLIHAASNLQSGVPSRFSGSGSGTDFTLTISSLQPEDFATYFCQQSYTTPQYTFGQGTKLEIK
B7: BD55-6722 (protein)
chain 1: EVQLVESGGGLTQPGGSLRLSCVASGFIFSDYDMHWVRQAPGKGLEWVSAIGTAGDTYYPASVKGRFTVSRDNGKHLLHLQMSSLTAGDTAVYYCVRVPMIRGDHYGMDVWGRGTTVTVSS
chain 2: SYELTQPPSVSVSPGQTARIACSGDALPRQYASWYQQKPGQAPVLIIYKDTERPSGIPERFSASSSGTTVTLSISGVQTEDEADYYCQSADSGFVVFGGGTKLTVL
B8: BD55-6723 (protein)
chain 1: QVTLKESGPVLVKPTETLTLTCTVSGFSLSDARMGVSWIRQPPGKALEWLGHIFSNDDKSYNTSLKSRLTISKDTSRSQVVLTMTNMDPVDTATFYCARVEGFWSGSYYYYNMDVWGKGTTVTVSS
chain 2: EIVLTQSPATLSLSPGERATLSCRASQSVNNYLAWYQKKPGQAPRLLIYGASNRATGIPARFSGSGSGPDFTLTISSLEPEDFAVYYCQQRSDWPLIFTFGPGTKLDIK
B9: BD55-6724 (protein)
chain 1: QVQLVQSGAEVKKPGASVKVSCKASGYTFSNYYIHWVRQAPGQGLEWMGIINPSGGRASYAQKFQDRVTMTRDTSTSTVYMGLSSLRSEDTAVYYCARDFVRIGVATFPDYFDYWGQGTLVTVSS
chain 2: DIQLTQSPSSLSASVGDRVTITCRASQYMNNYLNWYQQKPGKAPKLLIYAASSLQSGVPSRFSGSGSGTDFTLTISSLQPEDFATYYCQQSYITPPYTFGQGTRLEIK
B10: BD55-6727 (protein)
chain 1: QVQLVESGGGLVKPGGSLRLSCAASGFTFSDYYMNWIRQAPGKGLEWLSYISSGGGTISYADSVKGRFTISRDNAKNSLYLQMNSLGAEDTAVYYCASDPGGLSELAAEYFHHWGQGTLVTVSS
chain 2: DIQMTQSPSSLSASVGDRVTITCRASQSISNYLNWYQQKPGKAPKLLIYAASSLQSGVPSRFSGSGSETDFTLTISSLQSEDFATYYCQQSHSTPYTFGQGSKLEIK
B11: BD55-6729 (protein)
chain 1: QVQLVQSGAEVKKPGTSMRVSCKASGYTFSTYGIIWVRQAPGQGLEWMGWISPHNGDPNYAQKFQGRVTMTIDTSTTTASLEVRSLRSDDSAVYFCARQLLFFGDLSGDNGMDVWGQGTAVTVS
chain 2: SYELTQPPSVSVSPGQTARITCSGDAVATQFLYWYQQKSGQAPVMVIYKDTKRPSGIPERFSATRSGKTVSLIISGVQAEDEADYYCQSADSRGVVFGGGTKLTVL
B12: BD55-1332 (protein)
chain 1: QVQLVQSGAEVKKPGASMKVSCKASGYTFTHYYIHWVRQAPGQGLEWMGIINPDGGSTTYAQKFQGRVTMTTDTSTSTVYMDLSSLRSDDTAVYYCARGGSPPHVRGAMDVWGQGTTVTVSS
chain 2: DIQMTQSPSSLSASVGDRVTITCRASQSVNRNLNWYQQKPGRAPKLLIYAASSLENGVPSRFSGSGSGTDFTLTISSLQPEDFATYYCQQSYSISMHTFGQGTKLEIK

Biological target: SARS-CoV-2 Omicron BA.1 spike pseudovirus
Assay: pseudovirus neutralization IC50; higher = weaker neutralization
Method: (§1)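 Single-round VSV luciferase pseudovirus mixed with antibody dilutions for 1 h and put on Huh-7 cells for about a day; IC50 from the dose curve.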

B1 and B2 cannot be ordered by “pseudovirus neutralization IC50” value: over 10 µg/mL for the first, over 10 µg/mL for the second.

B3 and B4 cannot be ordered by “pseudovirus neutralization IC50” value: over 10 µg/mL for the first, over 10 µg/mL for the second.

B5 and B6 cannot be ordered by “pseudovirus neutralization IC50” value: over 10 µg/mL for the first, over 10 µg/mL for the second.

First: B7
Second: B8
The “pseudovirus neutralization IC50” value of the first is higher: over 10 µg/mL for the first, 0.186 µg/mL for the second.

Compared with B9, B10 is lower in “pseudovirus neutralization IC50” value: over 10 µg/mL for the first, 4.37 µg/mL for the second.

B11 and B12 cannot be ordered by “pseudovirus neutralization IC50” value: over 10 µg/mL for the first, over 10 µg/mL for the second.

Biological target: SARS-CoV-2 Omicron BA.2 spike pseudovirus
Assay: as above
Method: as §1

B1 and B2 cannot be ordered by “pseudovirus neutralization IC50” value: over 10 µg/mL for the first, over 10 µg/mL for the second.

B3 and B4 cannot be ordered by “pseudovirus neutralization IC50” value: over 10 µg/mL for the first, over 10 µg/mL for the second.

B5 and B6 cannot be ordered by “pseudovirus neutralization IC50” value: over 10 µg/mL for the first, over 10 µg/mL for the second.

Going from B7 to B8, the “pseudovirus neutralization IC50” value falls from over 10 µg/mL to 0.151 µg/mL.

B9 and B10 cannot be ordered by “pseudovirus neutralization IC50” value: over 10 µg/mL for the first, over 10 µg/mL for the second.

B11 and B12 cannot be ordered by “pseudovirus neutralization IC50” value: over 10 µg/mL for the first, over 10 µg/mL for the second.

Biological target: SARS-CoV-2 Omicron BA.2.75 spike pseudovirus
Assay: as above
Method: as §1

B1 and B2 cannot be ordered by “pseudovirus neutralization IC50” value: over 10 µg/mL for the first, over 10 µg/mL for the second.

B3 and B4 cannot be ordered by “pseudovirus neutralization IC50” value: over 10 µg/mL for the first, over 10 µg/mL for the second.

B5 and B6 cannot be ordered by “pseudovirus neutralization IC50” value: over 10 µg/mL for the first, over 10 µg/mL for the second.

Going from B7 to B8, the “pseudovirus neutralization IC50” value falls from over 10 µg/mL to 1.25 µg/mL.

B9 and B10 cannot be ordered by “pseudovirus neutralization IC50” value: over 10 µg/mL for the first, over 10 µg/mL for the second.

B11 and B12 cannot be ordered by “pseudovirus neutralization IC50” value: over 10 µg/mL for the first, over 10 µg/mL for the second.

Biological target: SARS-CoV-2 Omicron BA.5 spike pseudovirus
Assay: as above
Method: as §1

First: B1
Second: B2
The “pseudovirus neutralization IC50” value of the first is higher: over 10 µg/mL for the first, 5.07 µg/mL for the second.

B3 and B4 cannot be ordered by “pseudovirus neutralization IC50” value: over 10 µg/mL for the first, over 10 µg/mL for the second.

B5 and B6 cannot be ordered by “pseudovirus neutralization IC50” value: over 10 µg/mL for the first, over 10 µg/mL for the second.

First: B7
Second: B8
The “pseudovirus neutralization IC50” value of the first is higher: over 10 µg/mL for the first, 0.279 µg/mL for the second.

B9 and B10 cannot be ordered by “pseudovirus neutralization IC50” value: over 10 µg/mL for the first, over 10 µg/mL for the second.

B11 and B12 cannot be ordered by “pseudovirus neutralization IC50” value: over 10 µg/mL for the first, over 10 µg/mL for the second.

Biological target: SARS-CoV-2 Omicron BQ.1.1 spike pseudovirus
Assay: as above
Method: as §1

B1 and B2 cannot be ordered by “pseudovirus neutralization IC50” value: over 10 µg/mL for the first, over 10 µg/mL for the second.

B3 and B4 cannot be ordered by “pseudovirus neutralization IC50” value: over 10 µg/mL for the first, over 10 µg/mL for the second.

B5 and B6 cannot be ordered by “pseudovirus neutralization IC50” value: over 10 µg/mL for the first, over 10 µg/mL for the second.

Compared with B7, B8 is lower in “pseudovirus neutralization IC50” value: over 10 µg/mL for the first, 0.289 µg/mL for the second.

B9 and B10 cannot be ordered by “pseudovirus neutralization IC50” value: over 10 µg/mL for the first, over 10 µg/mL for the second.

B11 and B12 cannot be ordered by “pseudovirus neutralization IC50” value: over 10 µg/mL for the first, over 10 µg/mL for the second.

Biological target: SARS-CoV-2 Omicron XBB spike pseudovirus
Assay: as above
Method: as §1

B1 and B2 cannot be ordered by “pseudovirus neutralization IC50” value: over 10 µg/mL for the first, over 10 µg/mL for the second.

B3 and B4 cannot be ordered by “pseudovirus neutralization IC50” value: over 10 µg/mL for the first, over 10 µg/mL for the second.

B5 and B6 cannot be ordered by “pseudovirus neutralization IC50” value: over 10 µg/mL for the first, over 10 µg/mL for the second.

B7 and B8 cannot be ordered by “pseudovirus neutralization IC50” value: over 10 µg/mL for the first, over 10 µg/mL for the second.

B9 and B10 cannot be ordered by “pseudovirus neutralization IC50” value: over 10 µg/mL for the first, over 10 µg/mL for the second.

B11 and B12 cannot be ordered by “pseudovirus neutralization IC50” value: over 10 µg/mL for the first, over 10 µg/mL for the second.

Biological target: SARS-CoV-2 early D614G spike pseudovirus
Assay: as above
Method: as §1

Compared with B1, B2 is lower in “pseudovirus neutralization IC50” value: over 10 µg/mL for the first, 0.00463 µg/mL for the second.

Going from B3 to B4, the “pseudovirus neutralization IC50” value falls from over 10 µg/mL to 1.96 µg/mL.

B5 and B6 cannot be ordered by “pseudovirus neutralization IC50” value: over 10 µg/mL for the first, over 10 µg/mL for the second.

Going from B7 to B8, the “pseudovirus neutralization IC50” value falls from over 10 µg/mL to 0.00514 µg/mL.

Going from B9 to B10, the “pseudovirus neutralization IC50” value falls from over 10 µg/mL to 0.293 µg/mL.

B11 and B12 cannot be ordered by “pseudovirus neutralization IC50” value: over 10 µg/mL for the first, over 10 µg/mL for the second.
